In article PMC7730638, “Liposomes Composed by Membrane Lipid Extracts from Macrophage Cell Line as a Delivery of the Trypanocidal N,N’-Squaramide 17 towards Trypanosoma cruzi” (Materials, 2020):

Key:
[1] = tested on: T. cruzi (strain CL-Brener) epimastigote; assay: Trypanocidal activity on epimastigotes (resazurin); type: cell-based, Trypanosoma cruzi; settings: for Epimastigote SI: SI = CC50 (VERO cell)/IC50 epimastigote
Procedure: (§1) VERO (ATCC CCL81) and RAW 264.7 cells (ATCC TIB71) were maintained in RPMI-1640 supplemented with 10% fetal bovine serum (FBS) (Sigma Aldrich, St. Louis, MO, USA) without phenol red at 37 °C and 5% CO2 [14]. […] Trypomastigotes were obtained from monolayers of infected VERO cells grown at 37 °C in an atmosphere with 5% CO2 in RPMI-1640, pH 7.4, supplemented with 10% FBS and 100 μg/mL gentamicin. […] Then, 2.5 × 10^5 epimastigotes/mL were resuspended in 150 μL and added to the microplates. After 48 h, resazurin was added (20 μL/well of resazurin −3 mM), incubated for further 24 h, and fluorescence was recorded as described above. Nanostructures’ effect on amastigotes was accessed in VERO cell line grown in RPMI medium containing 10% FBS and seeded at a density of 1 × 10^4 cells/well in 24-well microplates. After 48 h, cells were infected with trypomastigotes at a ratio of 10:1 during 24 h, followed by removal of reminiscent extracellular parasites by washing with PBS. […] Cells were fixed and stained with Kit for Fast Staining in Haematology (Figure S2), and the number of amastigotes was determined by counting 200 cells for each experimental group distributed in random microscopic fields. The IC50 values were determined by nonlinear regression in GraphPad Prism version 7.0 (GraphPad Software, San Diego, CA, USA). Selectivity indices (SI) were calculated using the formula: SI = CC50 cytotoxicity in VERO cells/IC50 cytotoxicity in intracellular amastigotes.

[2] = tested on: T. cruzi intracellular amastigotes; assay: Trypanocidal activity on intracellular amastigotes in infected VERO cells (counting of stained cells); type: cell-based, Trypanosoma cruzi; settings: SI = CC50 (VERO cell)/IC50 intracellular amastigotes
Procedure: as §1, with “microplates.” for “microplates. After 48 h, cells were infected with trypomastigotes at a ratio of 10:1 during 24 h, followed by removal of reminiscent extracellular parasites by washing with PBS.”

Compound	Epimastigote SI [1]	Amastigotes in VERO Cell SI [2]	SI for epimastigotes relative to BZ ([1]; compared with BZ SI = 17.99) [times]
O=C(Cn1ccnc1[N+](=O)[O-])NCc1ccccc1 [BZ, benznidazole, reference compound]	17.99	59.76	
CCCCNc1c(N(C)CCCN(C)C)c(=O)c1=O [S, N, N’-Squaramide 17]	56.11	14.38	3
